Experimental data published in US20250276998A1, “NOVEL DAROBACTIN DERIVATIVES” (Helmholtz-Zentrum Fur Infektionsforschung GmbH, priority 2021, published 2025).

Assay: LC-MS AUC of mass peak of derivative in crude extract relative to D9
Details: relative amount of derivative vs D9

| SMILES | AUC ratio (derivative/D9) |
| --- | --- |
| C[C@@H]1NC(=O)[C@H]2NC(=O)[C@H](CC(N)=O)NC(=O)[C@@H](N)Cc3c[nH]c4c(cccc34)O[C@@H]2c2c[nH]c3cc(ccc23)[C@H](CCCN)[C@@H](C(=O)N[C@@H](CO)C(=O)N[C@@H](Cc2c[nH]c3ccccc23)C(=O)O)NC1=O [Darobactin 30] | 0.29 |
| C[C@@H](O)[C@@H]1NC(=O)[C@H]2NC(=O)[C@H](CC(N)=O)NC(=O)[C@@H](N)Cc3c[nH]c4c(cccc34)O[C@@H]2c2c[nH]c3cc(ccc23)C(CCNC(=N)N)[C@@H](C(=O)N[C@@H](CCCNC(=N)N)C(=O)N[C@@H](Cc2c[nH]c3ccccc23)C(=O)O)NC1=O (some centres unmarked) [Darobactin 39] | 0.52x |
